Compound potency records, mixed from different reports. Data source: NIAID ChemDB in PubChem.

All rows: enzyme or target tests

Percent inhibition refers to the dose given; in toxicity tests it is the harm to the cells.

smiles | tested at | organism | read-out | strain or isolate | method | target | value
CCn1cc(C(=O)Nc2cc(/C(C)=N\N=C(N)N)cc(/C(C)=N/N=C(N)N)c2)c(=O)c2ccc(C)nc21 |  | Mycobacterium tuberculosis | IC50 |  | kinase activity / radiometric | Protein kinase B | 0.621 µM
CCCCCCCC/C=C\CCCCCCCCN1C(=O)N(Cc2ccccc2)C(=O)C[C@H]1C1OC2OC(C)(C)OC2[C@H]1Oc1ccccc1 | 100 µM | Mycobacterium aurum | inhibition |  |  | Alpha-glucosidase | 48.5%
C/C(=N/N=C(N)N)c1cc(NC(=O)C(F)(F)C(F)(F)C(F)(F)C(F)(F)C(F)(F)C(F)(F)C(F)(F)C(F)(F)C(=O)Nc2cc(/C(C)=N\N=C(N)N)cc(/C(C)=N\N=C(N)N)c2)cc(/C(C)=N\N=C(N)N)c1 |  | Mycobacterium tuberculosis | IC50 |  | kinase activity / radiometric | Protein kinase B | 0.088 µM
Cc1cn(CCCCN2C(=O)c3cccc4cccc(c34)C2=O)c(=O)[nH]c1=O |  | Mycobacterium tuberculosis | Ki |  | absorbance | Thymidine monophosphate kinase | 42 µM
CCOC(=O)C[C@@H](C1O[C@@H]2OC(C)(C)O[C@@H]2[C@H]1OC)N(C(=O)Nc1ccc(Cl)cc1)C1CC1 | 100 µM | Mycobacterium aurum | inhibition |  |  | Alpha-glucosidase | 4.3%
Cc1cn(C/C=C/CN2C(=O)c3cccc4cccc(c34)C2=O)c(=O)[nH]c1=O |  | Mycobacterium tuberculosis | Ki |  | absorbance | Thymidine monophosphate kinase | >100 µM
CCCCCCCCCCCCN(C(=O)Nc1cccc(C(C)=O)c1)[C@@H](CC(=O)OCC)C1O[C@@H]2OC(C)(C)O[C@@H]2[C@H]1Oc1ccccc1 | 100 µM | Mycobacterium aurum | inhibition |  |  | Alpha-glucosidase | 11.9%
Cc1cn(C/C=C\CN2C(=O)C3=CC=CC4=CC=CC2C43)c(=O)[nH]c1=O |  | Mycobacterium tuberculosis | Ki |  | absorbance | Thymidine monophosphate kinase | 0.42 µM
Cc1cn([C@@H]2O[C@H](CO)[C@H]3CNC(=O)O[C@H]32)c(=O)[nH]c1=O |  | Mycobacterium tuberculosis | Ki | H37Rv |  | Thymidine monophosphate kinase | 13.5 µM
CCCCCCCN1C(=O)N(Cc2ccccc2)C(=O)C[C@H]1C1OC2OC(C)(C)OC2[C@H]1OC | 100 µM | Mycobacterium aurum | inhibition |  |  | Alpha-glucosidase | 0.72%
COCCN1CCN(C(=O)c2nc3cc(C(F)(F)F)cc([N+](=O)[O-])c3s2)CC1 |  | Mycobacterium tuberculosis | IC50 |  | fluorescence / absorbance | Cytochrome P450 2C9 | >100 µM
CC1(C)OC2OC([C@@H]3CC(=O)N(c4ccc(Cl)cc4)C(=O)N3)[C@H](Oc3ccccc3)C2O1 | 100 µM | Mycobacterium aurum | inhibition |  |  | Alpha-glucosidase | 2.5%
C[C@H]1COC2(CCN(c3nc(=O)c4cc(C(F)(F)F)cc([N+](=O)[O-])c4s3)CC2)O1 |  | Mycobacterium tuberculosis | IC50 |  | fluorescence / absorbance | Cytochrome P450 1A2 | 21.98 µM
Cc1cn([C@H]2CC[C@@H](O)O2)c(=O)[nH]c1=O |  | Mycobacterium tuberculosis | Ki |  | absorbance | Thymidine monophosphate kinase | 27 µM
NNC(=O)c1ccncc1 |  | Mycobacterium tuberculosis | IC50 | H37RV (INH 10 ug/mL-R) |  | Alpha-ketoglutarate dehydrogenase | >1000 µM
CCCCCCCCCCCCN(C(=O)Nc1ccc(Cl)cc1)[C@@H](CC(=O)OCC)C1O[C@@H]2OC(C)(C)O[C@@H]2[C@H]1Oc1ccccc1 | 100 µM | Mycobacterium aurum | inhibition |  |  | Alpha-glucosidase | 94.3%
COC(=O)[C@@H](NC(=O)NCCC(=O)N[C@H]1CCCCNC(=O)/C=C/[C@H](Cc2c[nH]c3ccccc23)NC1=O)C(C)C |  | Mycobacterium tuberculosis | IC50 |  | substrate cleavage / fluorescence | Proteasome | 17.25 µM
Cc1cn(C/C=C\CN2C(=O)C3=CC=CC4=C(N)C=CC2C34)c(=O)[nH]c1=O |  | Mycobacterium tuberculosis | Ki |  | absorbance | Thymidine monophosphate kinase | 2.4 µM
Cc1c(Br)c(=O)n(C2CCCC2)c2nc(Nc3ccc(N4CCN(C)CC4)cc3)ncc12 | 10 µM | Mycobacterium tuberculosis | inhibition |  | kinase activity / radiometric | Protein kinase B | 97.6%
CCCCN1C(=O)N(c2ccc(F)cc2)C(=O)C[C@H]1C1OC2OC(C)(C)OC2[C@H]1OC | 100 µM | Mycobacterium aurum | inhibition |  |  | Alpha-glucosidase | 13.5%
C/C(=N/N=C(N)N)c1cc(NC(=O)CCC(=O)Nc2cc(/C(C)=N\N=C(N)N)cc(/C(C)=N/N=C(N)N)c2)cc(/C(C)=N/N=C(N)N)c1 | 10 µM | Mycobacterium tuberculosis | inhibition |  | kinase activity / radiometric | Protein kinase B | 99.1%
CO[C@H]1/C=C/O[C@@]2(C)Oc3c(C)c(O)c4c(=O)c(c5oc6cc(N7CCN(CC(C)C)CC7)cc(=O)c6nc5c4c3=C2O)NC(=O)/C(C)=C\C=C\[C@H](C)[C@H](O)[C@@H](C)[C@@H](O)[C@@H](C)[C@H](OC(C)=O)[C@@H]1C |  | Mycobacterium fortuitum | IC50 | F-65 |  | RNA polymerase | >10 µg/mL

Lines come from different laboratories, so protocols vary. ICn: concentration for n% inhibition. Blank or dashed fields: not listed here.